This assay concerns Streptococcus pneumoniae. The assay is described as follows: Inhibition of penicillin-resistant Streptococcus pneumoniae 159 recombinant MurM at 1 mM by liquid scintillation counting.

The text below walks through data of ChEMBL document CHEMBL1138621, “Inhibition of tRNA-dependent ligase MurM from Streptococcus pneumoniae by phosphonate and sulfonamide inhibitors” (Bioorg Med Chem, 2009).

`CP(=O)(O)O[C@H]1C[C@H](n2cnc3c(N)ncnc32)O[C@@H]1CO`: the inhibition was determined as 7%.

As a reminder, the inhibition is the share of the control response that was lost under treatment.
